The record followed here is paper PMC5797941.

Construct, isoform or probe ends are uncertain for at least one entry. Protein sequences can lack the tags named with them.

The target of this series is T1, His6-SlyA (UniProt P0A8W3).
T1 sequence (looked up, limits assumed): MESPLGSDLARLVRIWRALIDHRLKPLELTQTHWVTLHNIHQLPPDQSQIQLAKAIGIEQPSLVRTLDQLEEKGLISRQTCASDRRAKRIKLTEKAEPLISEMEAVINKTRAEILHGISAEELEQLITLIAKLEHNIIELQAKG
Briefly: EMSA. The following applies: apparent Kd, range given for the group, 20 µl: 10 mM Tris/HCl pH 7.5, 50 mM KCl, 1 mM DTT, ~1 nM biotin-DNA, 0-500 nM SlyA, 25 °C, 30 min, recombinant protein, protein details: His6 (pLATE-51, pGS2469), probe letters rebuilt from the primers and the genome. On the technique in general: Mobility shift assays separate free from complexed probe on a gel.

In the case of “AACAAACAACTCCTTGTCCGGAGAACCCCAACGGGGAAAACGAAATTCAATACCGTCGGTAATGACGAAAGGCAGGTGAGAAGGGCAACGAGACTGCAAATGTACTGAATTTCATGTAATCAACCACACTGCCTGTGAACACACAGACAGAGAAATACTTTCTGACTTCGGGTCAGAATGTATAACGATTACAAATAGTCATCAGCACATTACACCTCTTGAATTGATGGGTTGCATAGAAAATATACACCTTAAGTGTAATTAAAATTTGCGGTTAATCAAAAGAGCGCGGTGGAAAGGGGAATATCTGCCGGGTACAGGACATGTAAAACGCGAGCTTGTTTCCGGAAAAATGTATCGTTTGCAGAAGAATAAAAATAGCCTGGAAAGCGCCTCGGGG (double strand) [mdtM upstream region]”, the binding result (label: 5' biotin (TC57 strand)) is “binds”.
Regarding “TGGTGAATATTATTGATCAATTAATGTTAAGAATTAATGCATTAAATATATAAATTAATTATTAAATAAGCACATTTAATCCATTTTGTAGATGATTGAGTATTCGCGGTAGTTATGATTAGATTGTTTTCGCAACAAAAACATTATGGATTATTATGCTGTGGTAAATGACTCATTCCACGGCAATGGATTCTGTTTTTATCAGAACCCGTATCTTTATGTTTTCCGAATTTTACTCATTTTGCTTTTTCTTATTTTATATGCATGATAAATCATATTCTTCAGGATTATTTCTCTGCATTCCAATAAGGGAAAGGGAGTTAAGTGTGACAGTGGAGTTAAGT (double strand) [leuO-leuL intergenic region]”, for the setting “label: 5' biotin (TC51 strand)”, the binding result was “binds”.
